Article PMC11329928, “Design, synthesis and structure-activity relationship (SAR) studies of an unusual class of non-cationic fatty amine-tripeptide conjugates as novel synthetic antimicrobial agents” (Frontiers in Pharmacology, 2024)

Key:
[1] = test system: S. pneumoniae D39; assay type: cell-based, Streptococcus pneumoniae; conditions: 1 h treatment, C + Y, 37°C, Hill fit
Text: (§1) First, the substitution of the fatty amino chain of 18 carbon atoms of the reference compound DICAM 2 by either an OMe group (methylated tripeptide DICAM 5) or an amine with 12 carbon atoms (DICAM 9) abolished the activity against all three pathogens. However, the activity remained intact when the chain of the fatty amine of prototypes DICAMs 1 and 4 was two carbon atoms shorter (DICAM 10 and DICAM 12, respectively), based on S. pneumoniae and S. pyogenes results. […] Third, Glu and Ala were tolerated as C-terminal residues of the lipotripeptides. […] In addition, deletion of the C-terminal Glu (DICAM 13) eradicated the activity against S. pneumoniae and S. aureus. However, a delay and small inhibition of S. pyogenes ^T growth was still observed. Fourth, Glu (DICAMs 19 and 20) and Orn (DICAMs 21 and 22) were tolerated as N-terminal residues, with the impact of these modifications being pathogen-dependent. […] SAR studies continued by measuring the dose dependence of DICAM’s activity at T1 with all the compounds found to be active against S. pyogenes or S. aureus in the initial screening, and all but one compound in the case of S. pneumoniae. The OD values of bacterial cultures were monitored after DICAM addition, and the decrease in the number of viable bacteria was measured relative to controls (Figures 4–6; Supplementary Figure S1). As antibacterial efficacy may decline with the bacterium dose in the inoculum ([Belley et al., 2009]; [Udekwu et al., 2009]; [Luca et al., 2013]), the assays were performed using the bacterial concentrations necessary for the fluorescence experiments in Section 2.3 (10^7–10^8 CFU/mL). At these high bacterial densities, MICs were determined as the DICAM concentration at which bacteria neither grow nor are killed (the stationary concentration (SC)), following [Udekwu et al., 2009]. By fitting the logarithmic plot of cell viability decrease vs. the DICAM dose to a Hill function (see Section 5.2.3.1) we were able to determine the maximum variation in viability (Δlogmax = ∆log f - ∆log 0, where ∆log f and ∆log 0 are the upper and lower limits of Δlog) in the assay conditions, the SC concentration (Δlog = 0), the dose required for half-variation in Δlogmax (K 1/2), and the cooperativity of the antimicrobial effect (N H).
(§2) Susceptibility to DICAMs was first tested by growth-inhibition assays at 50 and 100 μM of compound. Briefly, working solutions at 5 mM or 10 mM DICAM in pure DMSO were prepared from DICAM stocks (40 mM in pure DMSO) and diluted with fresh culture medium to 5× the desired final concentration. Aliquots (50 µL) of these solutions were added to 200 µL of bacterium cultures grown to early exponential phase (OD550/600 c. a. 0.15–0.2 in sterile 96-well plates (Cultek, Spain). Incubation continued for 10 h at 37°C and turbidity (OD550/600) values were measured every 20 min to monitor growth and lysis, using a VersaMax microplate reader (Molecular Devices; United Kingdom). Next, the activity dependence on DICAM’s dose was examined by measuring the turbidity of treated and untreated cultures as a function of time. Also, the decay of bacterial viability (CFU/mL) at selected times of treatment was assessed by colony counting on LB-agar or TSA plates after overnight incubation at 37°C. By default, 10 μL of 10-fold serially diluted samples were plated, which set the lower detection limit at 10^2 CFU/mL (10^1 CFU/mL when 100 μL of the undiluted sample was seeded).
(§3) As antibacterial efficacy may decline with the bacterium dose in the inoculum ([Belley et al., 2009]; [Udekwu et al., 2009]; [Luca et al., 2013]), activity assays were performed using the bacterial concentrations required for the fluorescence experiments in Section 2.3 (10^7–10^8 CFU/mL). At such bacterial densities, MICs were determined as the DICAM concentration at which bacteria neither grow nor are killed under assay conditions (the stationary concentration (SC)), as indicated in Section 2.2. […]

[2] = test system: S. pyogenes T; experiment: Dose dependence of bacterial viability (CFU counting, Hill fit); assay type: cell-based, Streptococcus pyogenes; conditions: 2 h treatment, BHI, 37°C
Text: as §1, §2, §3

[3] = test system: human erythrocytes (hRBCs); assay type: cell-based; conditions: for SI Spn (HC50/SC or IC50av/SC): S. pneumoniae D39, lower bound over both definitions; for SI Spn HC50/SC / SI Spy HC50/SC: selective index; for SI Spn HC50/SC: HC50 over SC for S. pneumoniae D39; for SI Spy HC50/SC: HC50 over SC for S. pyogenes T
[4] = test system: A549, IMR-90 and HeLa cells; conditions: selective index; for SI Spn IC50av/SC: mean of the three IC50 values over SC for S. pneumoniae D39; for SI Spy IC50av/SC: mean of the three IC50 values over SC for S. pyogenes T

CCCCCCCCCCCCCCCCCCNC(=O)[C@H](CCC(=O)O)NC(=O)[C@H]1CCCN1C(=O)[C@H](CC(N)=O)NC(=O)OCc1ccccc1 [DICAM 1, Cbz-Asn- Pro -Glu-NH-C18H37]
N H (Hill slope), S. pneumoniae D39 [1]: 1.5 ± 0.1
N H (Hill slope), S. pyogenes T [2]: 1.2 ± 0.1
SI Spn (HC50/SC or IC50av/SC) [3]: ≥ 6.2
SI Spn HC50/SC [3]: 6.25
SI Spy HC50/SC [3]: 2.8
SI Spn IC50av/SC [4]: 18.8
SI Spy IC50av/SC [4]: 8.6

CCCCCCCCCCCCCCCCCCNC(=O)[C@H](CCC(=O)O)NC(=O)[C@H]1CCCN1C(=O)[C@@H](N)CC(N)=O [DICAM 2, Asn- Pro -Glu-NH-C18H37 ·HCl]
N H (Hill slope), S. pneumoniae D39 [1]: 2.1 ± 0.2
N H (Hill slope), S. pyogenes T [2]: 1.4 ± 0.3
SI Spn HC50/SC [3]: 2
SI Spy HC50/SC [3]: 1.6
SI Spn IC50av/SC [4]: 10.6
SI Spy IC50av/SC [4]: 8.7

CCCCCCCCCCCCCCCCCCNC(=O)[C@H](CCC(=O)O)NC(=O)[C@H]1CCCN1C(=O)[C@H](C)NC(=O)OCc1ccccc1 [DICAM 3, Cbz-Ala- Pro -Glu-NH-C18H37]
N H (Hill slope), S. pneumoniae D39 [1]: 3.7 ± 0.5
N H (Hill slope), S. pyogenes T [2]: 1.7 ± 0.1
SI Spy (HC50/SC or IC50av/SC) ([3]; S. pyogenes T, lower bound over both definitions): ≥ 3.7
SI Spn HC50/SC [3]: 1.7
SI Spy HC50/SC [3]: 3.7
SI Spn IC50av/SC [4]: 9.4
SI Spy IC50av/SC [4]: 20

CCCCCCCCCCCCCCCCCCNC(=O)[C@H](CCC(=O)O)NC(=O)[C@H]1CCCN1C(=O)[C@H](C)N [DICAM 4, Ala- Pro -Glu-NH-C18H37 ·HCl]
N H (Hill slope), S. pneumoniae D39 [1]: 1.8 ± 0.3
N H (Hill slope), S. pyogenes T [2]: 1.2 ± 0.1
SI Spn HC50/SC [3]: 1.75
SI Spy HC50/SC [3]: 0.7
SI Spn IC50av/SC [4]: 10
SI Spy IC50av/SC [4]: 4

CCCCCCCCCCCCCCCCNC(=O)[C@H](CCC(=O)O)NC(=O)[C@H]1CCCN1C(=O)[C@H](CC(N)=O)NC(=O)OCc1ccccc1 [DICAM 10, Cbz-Asn- Pro -Glu-NH-C16H33]
N H (Hill slope), S. pneumoniae D39 [1]: 2.3 ± 0.3
N H (Hill slope), S. pyogenes T [2]: 2.4 ± 0.5
SI Spn (HC50/SC or IC50av/SC) [3]: ≥ 3.2
SI Spn HC50/SC [3]: 3.2
SI Spy HC50/SC [3]: 2.2
SI Spn IC50av/SC [4]: 10.6
SI Spy IC50av/SC [4]: 7.2

CCCCCCCCCCCCCCCCCCNC(=O)[C@H](C)NC(=O)[C@H]1CCCN1C(=O)[C@H](C)N [DICAM 14, Ala- Pro -Ala-NH-C18H37 · HCl]
N H (Hill slope), S. pyogenes T [2]: 2.1 ± 0.9
SI Spn HC50/SC [3]: 1
SI Spy HC50/SC [3]: 1.6
SI Spn IC50av/SC [4]: 0.2
SI Spy IC50av/SC [4]: 0.33

CCCCCCCCCCCCCCCCCCNC(=O)[C@H](CCC(=O)O)NC(=O)[C@H]1CCCN1C(=O)[C@H](CCC(=O)O)NC(=O)OCc1ccccc1 [DICAM 19, Cbz-Glu- Pro -Glu-NH-C18H37]
N H (Hill slope), S. pneumoniae D39 [1]: ∼4
N H (Hill slope), S. pyogenes T [2]: 1.6 ± 0.3
SI Spn HC50/SC [3]: 40
SI Spy HC50/SC [3]: 31.6
SI values (HC50/SC or IC50av/SC), S. pyogenes and S. pneumoniae ([3]; span over both definitions and both pathogens): 12–40
SI Spn IC50av/SC [4]: 15
SI Spy IC50av/SC [4]: 11.8

CCCCCCCCCCCCCCCCCCNC(=O)[C@H](CCC(=O)O)NC(=O)[C@H]1CCCN1C(=O)[C@@H](N)CCC(=O)O [DICAM 20, Glu- Pro -Glu-NH-C18H37 · HCl]
N H (Hill slope), S. pneumoniae D39 [1]: ∼4
N H (Hill slope), S. pyogenes T [2]: 1.3 ± 0.3
SI Spn HC50/SC [3]: 2
SI Spy HC50/SC [3]: 0.75
SI Spn IC50av/SC [4]: 25.4
SI Spy IC50av/SC [4]: 9.5

CCCCCCCCCCCCCCCCCCNC(=O)[C@H](CCC(=O)O)NC(=O)[C@H]1CCCN1C(=O)[C@H](CCCN)NC(=O)OCc1ccccc1 [DICAM 21, Cbz-Orn- Pro -Glu-NH-C18H37]
N H (Hill slope), S. pneumoniae D39 [1]: 4 ± 1
N H (Hill slope), S. pyogenes T [2]: 1.0 ± 0.5
SI Spn HC50/SC [3]: 1.5
SI Spy HC50/SC [3]: 1.2
SI Spn IC50av/SC [4]: 10.7
SI Spy IC50av/SC [4]: 8.6

CCCCCCCCCCCCCCCCCCNC(=O)[C@H](CCC(=O)O)NC(=O)[C@H]1CCCN1C(=O)[C@@H](N)CCCN [DICAM 22, Orn- Pro -Glu-NH-C18H37 · HCl]
N H (Hill slope), S. pneumoniae D39 [1]: ∼4
SI Spn HC50/SC [3]: 0.6
SI Spn IC50av/SC [4]: 2.9

CCCCCCCCCCCCCCCCCCNC(=O)[C@H](CCC(=O)O)NC(=O)[C@H]1CCCN1C(=O)[C@H](C)NC(C)=O [DICAM 24, Ac-Ala- Pro -Glu-NH-C18H37]
N H (Hill slope), S. pneumoniae D39 [1]: 2.7 ± 0.7
N H (Hill slope), S. pyogenes T [2]: 3.0 ± 0.4
SI Spn HC50/SC [3]: 2.2
SI Spy HC50/SC [3]: 2.3
SI Spn IC50av/SC [4]: 9.3
SI Spy IC50av/SC [4]: 9.3

Ala - Pro -Glu-NH-C18H37 · HCl [DICAM 23]
N H (Hill slope), S. pneumoniae D39 [1]: 2.0 ± 0.4

Counter-ions that a name gives are not always drawn.
